{
  "sequences": {"note": "The chains behind the UniProt entries cited, without tags or fusion partners. Where a name states a change or a piece, a line headed by the entry shows the natural chain unless it says otherwise.", "UniProt P94556": "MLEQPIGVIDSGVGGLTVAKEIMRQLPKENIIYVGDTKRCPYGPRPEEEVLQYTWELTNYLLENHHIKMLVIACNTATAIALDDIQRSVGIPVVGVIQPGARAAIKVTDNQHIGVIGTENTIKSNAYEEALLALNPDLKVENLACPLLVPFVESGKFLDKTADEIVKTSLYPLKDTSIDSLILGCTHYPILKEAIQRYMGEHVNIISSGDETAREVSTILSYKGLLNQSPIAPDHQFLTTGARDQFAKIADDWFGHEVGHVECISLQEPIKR"},
  "source": "patent US20160115136A1",
  "about": "“COMPOUNDS, COMPOSITIONS COMPRSING SAME, AND METHODS RELATED THERETO” (UNIVERSITY OF IOWA RESEARCH FOUNDATION, priority 2013, published 2016)",
  "target": "glutamate racemase (GR) from B. subtilis (Bacillus subtilis, UniProt P94556)",
  "conditions": "from log(Ki) and calculated logP (MarvinSketch)",
  "data": [
    {"substance": "7-fluoro-2-sulfo-1H-benzo[d]imidazole-5-carboxylic acid [Compound 4]", "values": [
      {"measurement": "LiPE (lipophilic efficiency)", "result": 6.0}
    ]}
  ]
}
